Marks after values point to notes of the source that are not given here.
Test system: pmoA
Experiment: pmoA expression in Methylocystis strain SB2 by RT-PCR and real-time quantitative RT-PCR
Type: cell-based
Settings: for pmoA expression (reverse transcription-PCR): substrate as the sole carbon and energy source; for 16S transcript: 16S gene / pmoA transcript: pmoA gene / pmoA: 16S: growth substrate
[1] = grown on acetate from OD600 of 0.11 to 0.15
[2] = OD600 nm 0.30, standard deviation in parentheses

SMILES	pmoA expression (reverse transcription-PCR)	pmoA expression normalized to overall rRNA transcript levels, acetate vs. methane-grown (99% confidence interval)	pmoA transcript:pmoA gene copy number ratio, lower on acetate compared to methane (99% confidence interval)	decrease of pmoA expression normalized to overall transcription activity [1]	decrease of quantity of pmoA transcript [1]	decrease of ratio of 16S rRNA transcripts to 16S rRNA gene copy number (grown to an OD600 of 0.15)	16S transcript: 16S gene (OD600 nm 0.11)	pmoA transcript: pmoA gene (OD600 nm 0.11)	pmoA: 16S (OD600 nm 0.11)	16S transcript: 16S gene (OD600 nm 0.15)	pmoA transcript: pmoA gene (OD600 nm 0.15)	pmoA: 16S (OD600 nm 0.15)	decrease of expression of pmoA compared to growth on methane (real-time quantitative PCR and RT-PCR)	16S transcript: 16S gene [2]	pmoA transcript: pmoA gene [2]	pmoA: 16S [2]	16S transcript: 16S gene (OD600 nm 0.43)	pmoA transcript: pmoA gene (OD600 nm 0.43)	pmoA: 16S (OD600 nm 0.43)
CCO [ethanol]	expressed	–	–	–	–	–	–	–	–	–	–	–	–	–	–	–	–	–	–
CC(=O)O [acetate]	expressed	11-46 fold	15-100 fold	three-fold	eight-fold	two-fold	1270 (322)	1.84 × 10^−1 (2.78 × 10^−2)	1.45 × 10^−4 (4.28 × 10^−5)	606 (129)	2.71 × 10^−2 (5.43 × 10^−3)	4.48 × 10^−5 (1.31 × 10^−5)	one to two orders of magnitude	–	–	–	–	–	–
C [methane]	expressed	–	–	–	–	–	–	–	–	–	–	–	–	1410 (405)^a	2.88 (0.28)	2.06 × 10^−3 (6.23 × 10^−4)	1680 (311)	2.84 (0.64)	1.69 × 10^−3 (4.89 × 10^−4)

Source: US8629239B2, “Methylocystis strain SB2 materials and methods” (Iowa State University Research Foundation, Inc., priority 2010, dated 2014)
